# Human monoclonal antibodies against the spike receptor-binding domain (heavy:light variable regions). IC50 against pseudoviruses bearing the spike of naturally observed variants; lower = stronger; >10 µg/ml means not reached at the top dose. No active / inactive call. The stated detection limit is 0.0005 µg/ml; values near or below 0.001 µg/ml lie at the floor of the assay.
# B1: BD56-1818 (protein)
# chain 1: HLQLQESGPGLVKPSETLSLTCTVSDGSISSRSYYWGWIRQPPGKGLEWIGTIFHTGSTYYNPSLKSGVTLSLDTSKNQFSLKLTSVTAADTAVYYCARLLRASGWFDPWGQGTLVTVSS
# chain 2: EIVMTQSPDSLAVSLGERATINCKSSHSLLYNSNNKDYLAWYQQKPGQPPRLLIYWASTRESGVPDRFSGSGSGTDFTLTISSLQAEDVAVYYCQQYYNTLPLTFGGGTKVEIK
# B2: BD56-1803 (protein)
# chain 1: EVQLVESGGGLVQPGRSLRLSCAASGFIFDDYAMHWVRQPPGKGLEWVSGVTSNSATIGYADSVKGRFIITRDNAENSMYLQMRSLRVEDTALYYCVKDSYRGRTMVRGYEDYGLDVWGQGTTVTVSS
# chain 2: SFVLTQPPSVSVAPGQTARITCGGTFIATKSVHWCQQRPGQAPVLVVHDDADRPSGIPERFSGSKSGNTATLTISRVEAGDEADYYCQVWDSSSDHVVFGGGTHLTVL
# B3: BD56-1819 (protein)
# chain 1: QVQLVQSGAEVKRPGSSVKVSCKASGGTFSSYPMSWVRQAPGHGLEWMGKIIPILGITHYAQKFQDRVTITADKSTSTTYMELGSLRSEDTAVYYCARVGGYSSGGAADYFDLWGQGTLVTVSS
# chain 2: QSVLTQPPSVSGAPGQRVTISCTGSNSNIGAGYDVHWYQQLPGTAPKLLISGNSNRPSGVPDRFSGSNSGTSASLAITGLHAEDEADYYCQSYDSSLSDVIFGGGTTLTVL
# B4: BD56-1829 (protein)
# chain 1: EVQLVESGGGLVQPGGSLKLSCAVSGFTFNNFEMNWVRQAPGKGLEWIAYISRSGSSIQYADSVKGRFSISRDNAKNSLYLQMNSLRAEDTAVYYCARVLYYYGSGTMSHWGQGTLVTVSS
# chain 2: DIQMTQSPSSLSASVGDRLTITCRASQTINSFLNWYQQKPGKAPNLLIYATSTLHSGVPSRFSGSGSGTDFTLTISSLQPEDFATYYCQQSYSVPPTFGGGTKVDLK
# B5: BD56-1797 (protein)
# chain 1: QVTLRESGPALVKPTQTLTLTCTFSGFSLSTSGMCVNWIRQPPGKALEWLARIDWDGDRYFNKSLETRLTISKDTSKNQVVLTMTNMDPVDTATYYCARMREVRGGDYGMDVWGQGTTVTVSS
# chain 2: QSVLTQPPSASGTPGHRVSISCSGSTSNIERNTVNWYQQVPGTAPKLLIYMNNQRPSGVPDRFSGSKSGTSASLAVSGLRSEDEADYYCATWDDSLNGWVFGGGTKLTVL
# B6: BD56-1816 (protein)
# chain 1: EVHLVQSGAEVKKPGESLRISCQASGYTFTNYWITWVRQMPGKGLEWMARIDPRDSESKYSPTFQGHVTMSIDKSIRTVYLQWTRLKASDSGIYYCARHAIESSGWDGQFGPWGQGTLVTVSS
# chain 2: SYELTQPPSVSVSPGQTARITCSGDAFPNQYVYWYQQKPGQAPVLIIFEDTERPSGIPERFSGSTSGTRVTLTISGVQVEDEADYYCLSADSSGALFGGGTKLTVL
# B7: BD56-1806 (protein)
# chain 1: EVQLVESGGGLVQPGGSLRLSCAASGFTFRSYDMHWVRQVTGKGLDWVSTIGTAGDGYYADSVKGRFTISRENAKNSLYLQMNSLRAGDTAVYYCARVGYTSSLTYWYLDVWGRGTLVTVSS
# chain 2: DIQMTQSPSSLSASIGDRVTITCRASQTIRSYLNWYQQKPGKAPNLLIYAASTLQSGVPSRFSGSGSGTDFTLTISSLQPEDFATYYCQQSYTTPLFTFGPGTKVDLK
# B8: BD56-1796 (protein)
# chain 1: QVQLVQSGAEVKNPGSSVKVSCKASGGTFSSYVICWVRQAPGQGLEWMGGIISTLDIANYAPRFQGRVSITADKSTTTAYMELSSLRSEDTAIYYCARAAPSHCSSTRCYDIWGQGTLVTVSS
# chain 2: QSVLTQPPSVSGAPGQRVTISCTGSSSNIEAGYDVHWYQQLPGTAPKLLIYDNTNRPSGVPDRFSGSKSGTSASLAITGLQAEDEADYYCQSYDSSLIGSVFGGGTKLTVL
# B9: BD56-1817 (protein)
# chain 1: QVQLQESGPGLVKPSQTLSLTCSVSGGSISSGTYYWSWIRQSAGKGLEWIGRIYTSESINYNSSFKGRVTISVDTSKNQFSLKLSSVTAADTAVYYCACGGDFRYFDLWGRGTQVTVTS
# chain 2: NFMLTQPHSVSESPGKTVTISCTRNIGSVASNFVQWYQLRPGSAPTTIIYEDNQRPSGVPDRFSGSIDSFSNSASLTISGLKTEDGADYYCQSYDSGNVLFGGGTKLTVL
# B10: BD56-1812 (protein)
# chain 1: EVQLVESGGGLVQPGGSLRLSCAASGFTFSNYDMHWVRQAAGTGLEWVSLIGTAGDTYYPDSVKGRFTISRENAKSSLYLQMNSLRVGDTAVYYCARASYDTDDLGGPHLDYWGQGTLVAVSS
# chain 2: DIQLTQSPSSLSASLGDRVTLTCRASQSISRYLHWYQQKPGKAPKLLIYVASTLQRGVPSRFSGSGSGTDFTLTISSLQPEDFATYYCQQSYTSPLYTFGQGTKLEMK
# B11: BD56-1801 (protein)
# chain 1: QVQLVESGGGVVQPGRSLRLSCAASGFTFKSYGMHWVRQAPGKGLEWVAVISYDGSFKYYADSVKGRFTISRDNSKNTLYLQMSSLRPEDTAVYYCAKEEGEMTTYFDYWGQGTLVTVSS
# chain 2: DIQMTQSPSSLSASVGDRVTITCRASQSISSYLNWFQQKPGKAPKLLIYDASSLQSGVPSRFSGSGSGTHFTLSISSLQPEDFATYYCQQSYSTPPWTFAQGTRVEVK
# B12: BD56-1813 (protein)
# chain 1: HVRLVESGGGVVQPGRSLRLSCAASGFTFSNYGMHWVRQAPGKGLEWVASIFYDGSNKFYRDSVKGRFTISRDNSNNALYLQMNSLRAEDTAVYYCAKEDRPTTVTTFTAFDLWGQGTLVTVSP
# chain 2: SYVLTQPPSVSVAPGKTASITCGGDSIGSKNVHWYQQKPGQAPILVIYYDTDRPSGIPERFSGSNSGNTATLTISRVEAGDEADYYCQVWDSSVVFGGGTKLTVL
# Biological target: SARS-CoV-2 Omicron BA.1 spike pseudovirus
# Assay: pseudovirus neutralization IC50; higher = weaker neutralization
# Method: (§1)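 Single-round VSV luciferase pseudovirus mixed with antibody dilutions for 1 h and put on Huh-7 cells for about a day; IC50 from the dose curve.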
row,Binder,pseudovirus neutralization IC50 [µg/mL]
1,B1,0.198
2,B2,0.0654
3,B3,0.0881
4,B4,0.0111
5,B5,> 10
6,B6,> 10
7,B7,> 10
8,B8,0.0819
9,B9,0.0198
10,B10,> 10
11,B11,3.99
12,B12,> 10

# Biological target: SARS-CoV-2 Omicron BA.2 spike pseudovirus
# Assay: as above
# Method: as §1
row,Binder,pseudovirus neutralization IC50 [µg/mL]
1,B1,0.285
2,B2,0.0864
3,B3,0.105
4,B4,0.0285
5,B5,0.00842
6,B6,> 10
7,B7,> 10
8,B8,0.0752
9,B9,0.0182
10,B10,> 10
11,B11,4.02
12,B12,> 10

# Biological target: SARS-CoV-2 Omicron BA.2.75 spike pseudovirus
# Assay: as above
# Method: as §1
row,Binder,pseudovirus neutralization IC50 [µg/mL]
1,B1,0.368
2,B2,0.0296
3,B3,0.147
4,B4,0.00761
5,B5,> 10
6,B6,> 10
7,B7,> 10
8,B8,0.12
9,B9,0.0221
10,B10,> 10
11,B11,5.81
12,B12,> 10

# Biological target: SARS-CoV-2 Omicron BA.5 spike pseudovirus
# Assay: as above
# Method: as §1
row,Binder,pseudovirus neutralization IC50 [µg/mL]
1,B1,0.835
2,B2,0.0997
3,B3,4.91
4,B4,> 10
5,B5,0.00461
6,B6,> 10
7,B7,> 10
8,B8,> 10
9,B9,2.37
10,B10,> 10
11,B11,2.58
12,B12,> 10

# Biological target: SARS-CoV-2 Omicron BQ.1.1 spike pseudovirus
# Assay: as above
# Method: as §1
row,Binder,pseudovirus neutralization IC50 [µg/mL]
1,B1,0.813
2,B2,> 10
3,B3,> 10
4,B4,> 10
5,B5,> 10
6,B6,> 10
7,B7,> 10
8,B8,> 10
9,B9,> 10
10,B10,> 10
11,B11,4.45
12,B12,> 10

# Biological target: SARS-CoV-2 Omicron XBB spike pseudovirus
# Assay: as above
# Method: as §1
row,Binder,pseudovirus neutralization IC50 [µg/mL]
1,B1,> 10
2,B2,> 10
3,B3,> 10
4,B4,> 10
5,B5,> 10
6,B6,> 10
7,B7,> 10
8,B8,> 10
9,B9,> 10
10,B10,> 10
11,B11,2.79
12,B12,> 10

# Biological target: SARS-CoV-2 early D614G spike pseudovirus
# Assay: as above
# Method: as §1
row,Binder,pseudovirus neutralization IC50 [µg/mL]
1,B1,0.211
2,B2,0.0292
3,B3,0.371
4,B4,0.00201
5,B5,0.0186
6,B6,> 10
7,B7,> 10
8,B8,0.29
9,B9,0.00671
10,B10,> 10
11,B11,1.06
12,B12,> 10
